Anti-infective test results gathered from many reports (values: NIAID ChemDB through PubChem).

Common to all: whole-cell or culture tests; organism: Varicella zoster virus; method: cytopathic effect; endpoint: EC50

ECn is the concentration giving n% inhibition of infection, replication or growth. Conditions beyond the fields shown may differ between rows.

structure,strain,cell line,value
Nc1ccn(C[C@@H](CO)OCP(=O)(O)O)c(=O)n1,Oka penciclovir-resistant/A,HEL,0.2 µM
Nc1nc2c(ncn2COC(CO)CO)c(=O)[nH]1,YS/R (TK-),HEL,24 µM
Cc1cn(CCCC(O)CF)c(=O)[nH]c1=O,OKA,HEL,>50 µg/mL
CO[C@H](CO)[C@@H](O)CCn1cnc2c(N)ncnc21,07/1 (TK-),HEL,>400 µg/mL
Nc1ncnc2c1ncn2C(CF)CCCO,YS/R (TK-),HEL,>50 µg/mL
CO[C@H](CO)[C@@H](O)CCn1cnc2c(=O)[nH]c(N)nc21,07/1 (TK-),HEL,>400 µg/mL
O=c1[nH]c(=O)n([C@H]2C[C@H](O)[C@@H](CO)O2)cc1/C=C/Br,07/1 (TK-),HEL,>150 µM
O=C(O)P(=O)(O)O,Oka PFA-resistant/B,HEL,274 µM
CC1(C)[C@@H](CO)CC[C@@]1(C)Cn1nnc2c(=O)[nH]cnc21,YS/R (TK-),HEL,>50 µg/mL
CCCCCCCC/C=C/CCCCCCCC(=O)O,YS,HEL,>100 µM
CC1(C)[C@@H](CO)CC[C@@]1(C)Cn1cnc2c(=O)[nH]cnc21,OKA,HEL,>50 µg/mL
Nc1ccn(CC[C@H](O)CCO)c(=O)n1,OKA,HEL,>400 µg/mL
CC1(C)[C@@H](CO)CC[C@@]1(C)Cn1cnc2c(Cl)ncnc21,07/1 (TK-),HEL,>50 µg/mL
Nc1nc2c(ncn2COCCO)c(=O)[nH]1,YS/R (TK-),HEL,20 µg/mL
Cc1cn(CC[C@H](O)CCO)c(=O)[nH]c1=O,OKA,HEL,>400 µg/mL
Nc1nc(N)c2ncn(CCOCP(=O)(O)O)c2n1,Oka BVaraU-resistant,HEL,3 µM
COC(=O)[C@H](C)NP(=O)(OC[C@H]1O[C@@H](n2cc(/C=C/Br)c(=O)[nH]c2=O)C[C@@H]1O)Oc1ccccc1,07 (TK-),HEL,139 µM
CC1(C)[C@@H](CO)CC[C@@]1(C)Cn1cnc2c(N)ncnc21,OKA,HEL,>50 µg/mL
Nc1ncnc2c1ncn2C[C@@H](CO)OCP(=O)(O)O,Oka PMEA-resistant,HEL,0.083 µM
Nc1nc(F)nc2c1ncn2[C@@H]1C=C(CO)[C@@H](O)[C@H]1O,07/1 YS/R (TK-),E6SM,40 µg/mL
CCCCOc1ccc(-c2cc3cn([C@H]4C[C@H](O)[C@@H](CO)O4)c(=O)nc3o2)cc1,YS/R (TK-),HEL,>50 µM
COC(=O)C(C)(C)NP(=O)(OC[C@H]1O[C@@H](n2cc(/C=C/Br)c(=O)[nH]c2=O)C[C@@H]1O)Oc1ccccc1,OKA,HEL,11 µM
CCOc1ccc(-c2cc3cn([C@H]4C[C@H](O)[C@@H](CO)O4)c(=O)nc3o2)cc1,OKA,HEL,<0.5 µM
Nc1ccn(CCCC(O)CF)c(=O)n1,YS/R (TK-),HEL,>50 µg/mL
O=c1nc2oc(-c3ccc(Cl)cc3)cc2cn1[C@H]1C[C@H](O)[C@@H](CO)O1,YS,HEL,0.5 µM
Nc1ncnc2c1ncn2C[C@H](O)CO,OKA,HEL,70 µg/mL
Nc1nc2c(ncn2CCC(CO)CO)c(=O)[nH]1,Oka BVDU-resistant,HEL,23 µM
COc1ccc(-c2cc3cn([C@H]4C[C@H](O)[C@@H](CO)O4)c(=O)nc3o2)cc1,YS,HEL,<0.5 µM

A second listing of 2 rows from above:

structure	strain	cell line	value
Nc1ccn(CCCC(O)CF)c(=O)n1	YS/R (TK-)	HEL	>50 µg/mL
CC1(C)[C@@H](CO)CC[C@@]1(C)Cn1cnc2c(Cl)ncnc21	07/1 (TK-)	HEL	>50 µg/mL